According to patent publication US20150283227A1, “SYNTHETIC ENV PROTEINS” (priority 2012, published 2015):

Assays:
CH01 UCA = assay: SPR binding to unmutated ancestor of CH01; design: species or system human; conditions: Table 1, faster component of dissociation phase
Experimental: (§1) Only the V1/V2 mAb CH58 bound to the glycan-deficient (aglycone) peptide (FIG. 9A). V1/V2 bNAbs ([…], CH01) bound weakly to V1/V2 GlcNAc2 peptide (FIG. 9B). In contrast, both bNAbs PG9 and CH01 bound avidly to the glycopeptides, V1/V2 Man3GlcNAc2 and V1/V2 Man5GlcNAc2 (FIGS. 9C and 9D). CH58 bound weakly to both glycopeptides. Each of the mAbs was captured on a human Fc specific IgG directly immobilized on a BIAcore CM5 sensor chip. Each of the V1/V2 peptides (3 min at 50 uL/min) was injected over the mAb captured surface and SPR binding was monitored on a BIAcore 3000 instrument. Non-specific binding of peptides was subtracted following measurement of signal on a surface with a control ant-RSV mab Synagis.
(§2) The binding Kd (disassociation constant) of the UAs ranges from about 0.15 to 0.2 μM.
(§3) V1V2 glycopeptide binding Kd and rate constant measurements were carried out on BIAcore 3000 instruments as described earlier (Alam et al, Immunol. 178(7):4424-4435 (2007), Alam et al, J. Virol. 82(1):115-125 (2008)). […]

PG9 UCA = assay: SPR binding to unmutated ancestor of PG9; design: species or system human; conditions: Table 1, faster component of dissociation phase
Experimental: as §1, §2, §3

## Man3GlcNAc2 V1V2
CH01 UCA
  kd: 36.3 s^−1 (×10^4)
PG9 UCA
  kd: 56.6 s^−1 (×10^4)

Marks after values point to notes of the source that are not given here.
